Tested on: influenza virus
Conditions: in vivo, po

Lignosulfonic acid sodium salt [sample 5]
side effects: not seen
